These results are taken from paper PMC12396409, “Screening and hit evaluation of a microbial metabolite library against the pathogenic Plasmodium falciparum and Toxoplasma gondii parasites” (International Journal for Parasitology: Drugs and Drug …, 2025).

Experiment [1] deals with P. falciparum 3D7 parasites. Kind of experiment: P. falciparum growth inhibition assay, 1-cycle (72 h treatment), SYBR DNA staining (library screen at 2 μg/mL and dose-response). It is filed as cell-based, Plasmodium falciparum.
Experiment [2] concerns P. falciparum 3D7 parasites. Briefly: P. falciparum growth inhibition assay, 2-cycle (120 h treatment), delayed-death screen and dose-response. Format: cell-based, Plasmodium falciparum. As to conditions: screen at 2 μg/mL.
The test system of experiment [3] is T. gondii RH strain (RH-Tub-eYFP) tachyzoites. The following applies: 72 h, screen at 2 μg/mL.

On to `CCC(C)C1NC(=O)/C(=C(/C)O)C1=O` (stereo not drawn), for which the Pf_72h_%Growth_Rep1 in experiment [1] (replicate 1) came out at 78.84%. Moreover, in experiment [1] (replicate 2), the Pf_72h_%Growth_Rep2 is listed as 104.74%. Also, the Pf_120h_%Growth_Rep1 in experiment [2] (replicate 1) is on record as 62.50%. The Pf_120h_%Growth_Rep2 in experiment [2] (replicate 2) was 90.44%. In experiment [3] (replicate 1), this compound came in with a Tg_72h_%Growth_Rep1 of 82.95%. Further, in experiment [3] (replicate 2), the Tg_72h_%Growth_Rep2 is listed as 59.53%.
